{"source": "ChEMBL document CHEMBL4007391", "about": "“Tackling Fungal Resistance by Biofilm Inhibitors” (J Med Chem, 2017)", "tested_on": "Candida albicans", "test": "Antibiofilm activity against Candida albicans SC5314 after 24 hrs by XTT assay", "type": "functional", "note": "pIC50: −log10 of the molar value.", "data": [{"smiles": "CCN(CCO)CCO.Oc1c(Cl)c(Cl)c(Cl)c(Cl)c1Cl", "values": [{"measurement": "pIC50", "value": 5.54}]}]}
